In ChEMBL document CHEMBL3244298, “Adamantylthiourea derivatives as antiviral agents” (J Med Chem, 1979):

System: unidentified influenza virus
Assay: Antiviral activity against Influenza virus A2/Asian/J305 infected in ip dosed mouse assessed as concentration required to cause survival at 21 days
Assay type: functional

SMILES: CCOP(=O)(NC(=S)NC12CC3CC(CC(C3)C1)C2)OCC
- PD50: 260 mg/kg
